Results of unrelated studies side by side (data: NIAID ChemDB).

All rows: toxicity to cultured cells; cells: MT-4; read by: MTT; read-out: CC50

Conditions beyond the fields shown may differ between rows. CCn: concentration that lowers growth or viability of the cells by n%.

smiles	value
O=C(CSc1nc2ncccc2n1-c1ccc(C2CC2)c2ccccc12)Nc1cccnc1Cl	0.8 µM
COc1ccc(CCNc2nc(NC(=S)Nc3ccc(Br)cc3)nc(Oc3cc(=O)oc4ccccc34)n2)cc1OC	62.7 µg/mL
CN(CCO)c1ccc(-c2nc3ccccc3c(=O)[nH]2)cc1	42.2 µM
CCCCCCCCCC(=O)O[C@@]12[C@H](OC(OC)OCC)[C@@H](C)[C@@]3(O)[C@@H](C=C(CO)C[C@]4(O)C(=O)C(C)=C[C@@H]34)[C@@H]1C2(C)C	3.3 µg/mL
ClC1c2nnc(-c3ccccc3)n2-c2ccccc2-n2c(-c3ccccc3)nnc21	3 µM
Cc1ccnc2c1NC(=O)c1cccnc1N2C1CC1	683 µM
CC(=O)N1CCC(NC(=O)c2cc(O)c(O)c(O)c2)CC1	42.6 µM
NS(=O)(=O)c1ccc(NC2=NS(=O)(=O)NC(Cc3ccc4ccccc4c3)=C2)cc1	139 µM
Nc1ccn(CC2CN2CP(=O)(O)O)c(=O)n1	>100 µM
Cc1ccnc2c1NC(=O)c1cccnc1N2C1CC1	100 µM
Cn1ncc2c1S(=O)(=O)N(CCc1ccccc1)C(=O)N2CCc1ccccc1Br	>271.1 µM
ClC1(Cl)c2nnc(-c3ccccc3)n2-c2ccccc2-n2c(-c3ccccc3)nnc21	30 µM
Nc1ccc(-c2nc3cc(Cl)ccc3c(=O)[nH]2)cc1	>170 µM
COc1ccc(S(=O)(=O)N2CCC(NC(=O)c3cc(O)c(O)c(O)c3)CC2)cc1	130.5 µM
Cc1c(Cc2c(Cl)cccc2Cl)nc(SCc2ccc(O)cc2)[nH]c1=O	41 µM
CN[C@H]1CO[C@@H]2OCC[C@H](OC(=O)N[C@@H](Cc3ccccc3)[C@H](O)CN(CC(C)C)S(=O)(=O)c3ccc4nc(NC5CC5)sc4c3)[C@@H]21	38 µM
O=S1(=O)N=C(Nc2ccccc2Cl)C=C(Cc2ccccc2)N1	182 µM
CC1c2nnc(-c3ccccc3)n2-c2ccc(C(F)(F)F)cc2-n2c(-c3ccccc3)nnc21	137 µM
Cc1cc(/C=C/c2ccccc2)cc(C)c1Oc1ccnc(Nc2ccc(C#N)cc2)n1	18.5 µM
Cc1ccnc2c1NC(=O)c1cccnc1N2C1CC1	>15.02 µM
CCN[C@H]1CO[C@@H]2OCC[C@H](OC(=O)N[C@@H](Cc3ccccc3)[C@H](O)CN(CC(C)C)S(=O)(=O)c3ccc4nc(NC5CC5)sc4c3)[C@@H]21	40 µM
N#Cc1ccc(NC(=O)CSc2nc3ncccc3n2-c2ccc(C3CC3)c3ccccc23)c(Br)c1	2.78 µM
Cc1cccnc1N1C(=O)CSC1c1c(F)cccc1F	319.3 µM
Cn1ncc2c1S(=O)(=O)N(CCc1ccccc1)C(=O)N2CCc1cccc(C#N)c1	>307.1 µM
N#Cc1ccc(Nc2nccc(C(O)c3ccccc3Cl)n2)cc1	29 µM
COc1ccc(CCNc2nc(NC(=S)Nc3ccc(Cl)cc3)nc(Oc3cc(=O)oc4ccccc34)n2)cc1OC	40.83 µg/mL
C=CCn1c(C(=O)c2cccc3ccccc23)c(CC)c(=O)[nH]c1=O	39.22 µM
Cc1cc(C#Cc2cccc(N)c2)cc(C)c1Oc1ccnc(Nc2ccc(C#N)cc2)n1	5.005 µM
COc1ccc(CCNc2nc(NC(=S)Nc3ccc(C)cc3)nc(Oc3cc(=O)oc4ccccc34)n2)cc1OC	53.66 µg/mL
Cc1cc(C)cc(S(=O)(=O)c2c(C(=O)NC(C)c3cccc(O)c3)[nH]c3ccc(Cl)cc23)c1	>16 µM
CC(=O)Nc1cccc(C#Cc2cc(C)c(Oc3ccnc(Nc4ccc(C#N)cc4)n3)c(C)c2)c1	0.844 µM
CCC(NC(=O)c1ccc(NC(=O)CSc2nc3ncccc3n2-c2ccc(C3CC3)c3ccccc23)c(Cl)c1)C(=O)O	0.55 µM
Cc1ccc(C(=O)N2CCC(NC(=O)c3cc(O)c(O)c(O)c3)CC2)cc1	29.6 µM
Cc1ccc(CCN2C(=O)N(CCc3ccc(C)cc3)S(=O)(=O)c3c2cnn3C)cc1	≥170.5 µM
CCOc1ccc(NC(=O)Nc2nc(NCCc3ccc(OC)c(OC)c3)nc(Oc3cc(=O)oc4ccccc34)n2)cc1	30.15 µg/mL
Cc1c(Sc2ccccc2)n(COCCO)c(=O)[nH]c1=O	405 µM
Cc1c(Cc2c(Cl)cccc2Cl)nc(SCc2cccc(C#N)c2)[nH]c1=O	>60 µM
CCc1c(C(=O)c2cccc3ccccc23)n(C/C=C/c2ccccc2)c(=O)[nH]c1=O	28.71 µM
CCCCCCCCCC(=O)O[C@@]12[C@H](OCOC)[C@@H](C)[C@@]3(O)[C@@H](C=C(CO)C[C@]4(O)C(=O)C(C)=C[C@@H]34)[C@@H]1C2(C)C	8.3 µg/mL
Cc1cc(C#Cc2ccc(C(F)(F)F)cc2)cc(C)c1Oc1ccnc(Nc2ccc(C#N)cc2)n1	7.353 µM
O=C1CSC(c2c(Cl)cccc2Cl)N1c1ccncc1	>10 µM
COC(=O)c1ccc(C(=O)N2CCC(NC(=O)c3cc(O)c(O)c(O)c3)CC2)cc1	26.9 µM
CCOc1ccc(CSc2nc(Cc3c(Cl)cccc3Cl)c(C)c(=O)[nH]2)cc1	>58 µM
COc1ccc(CCNc2nc(NC(=S)Nc3ccccc3Cl)nc(Oc3cc(=O)oc4ccccc34)n2)cc1OC	13.75 µg/mL
COc1cc(CSc2nc(Cc3c(F)cccc3F)c(C)c(=O)[nH]2)cc(OC)c1	>60 µM
COc1ccc(CCN=C2C=C(Cc3ccccc3)NS(=O)(=O)N2)cc1	209 µM
CCc1c(C(=O)c2cccc3ccccc23)n(CC=C(C)C)c(=O)[nH]c1=O	36.33 µM
Cn1ncc2c1S(=O)(=O)N(CCc1ccccc1)C(=O)N2CCc1cccc(Cl)c1	>300.1 µM
CN(C)S(=O)(=O)N1CCC(NC(=O)c2cc(O)c(O)c(O)c2)CC1	34.8 µM
Cc1cc(C#N)cc(C)c1Oc1ccnc(S(=O)(=O)CC(=O)Nc2ccccc2)n1	>29.3 µM
C=CCn1c(C(=O)c2cccc3ccccc23)c(C(C)C)c(=O)[nH]c1=O	37 µM
Cc1cc(C#Cc2ccccn2)cc(C)c1Oc1ccnc(Nc2ccc(C#N)cc2)n1	2.068 µM
COc1ccc(CCNc2nc(NC(=O)Nc3ccc(C)cc3)nc(Oc3cc(=O)oc4ccccc34)n2)cc1OC	74.98 µg/mL
Cn1ncc2c1S(=O)(=O)N(CCc1ccccc1)C(=O)N2CCc1ccccc1C#N	≥198 µM
O=C1CSC(c2c(F)cccc2F)N1c1cccnc1	427 µM
Cn1ncc2c1S(=O)(=O)N(CCc1ccc(Cl)cc1Cl)C(=O)N2CCc1ccc(Cl)cc1Cl	>253 µM
CC(C)CN(C[C@@H](O)[C@H](Cc1ccccc1)NC(=O)O[C@H]1CCOC1)S(=O)(=O)c1ccc(N)cc1	208 µM
COc1ccc(CCNc2nc(NC(=S)Nc3ccc(F)cc3)nc(Oc3cc(=O)oc4ccccc34)n2)cc1OC	14.55 µg/mL
Nc1ccc(C(=O)N2CCC(NC(=O)c3cc(O)c(O)c(O)c3)CC2)cc1	35.6 µM
NS(=O)(=O)c1ccc(NC2=NS(=O)(=O)NC(Cc3ccccc3)=C2)cc1	>318 µM
Cc1cc(C#Cc2cccnc2)cc(C)c1Oc1ccnc(Nc2ccc(C#N)cc2)n1	3.476 µM
c1ccc(-c2nnc3n2-c2ccccc2-n2c(nnc2-c2ccccc2)C3)cc1	12 µM
Cc1cn(CC2CN2CP(=O)(O)O)c(=O)[nH]c1=O	>100 µM
N#Cc1ccc(Nc2nccc([C@H](O)c3ccccc3Cl)n2)cc1	25 µM
COc1ccc(NC2=NS(=O)(=O)NC(Cc3ccccc3)=C2)cc1	318 µM
Cc1cc(C#Cc2ccccc2)cc(C)c1Oc1ccnc(Nc2ccc(C#N)cc2)n1	12.5 µM
COc1ccc(CN=C2C=C(Cc3ccccc3)NS(=O)(=O)N2)cc1	300 µM
Cc1ccnc2c1NC(=O)c1cccnc1N2C1CC1	>4 µg/mL
Cc1ccc(NC2=NS(=O)(=O)NC(Cc3ccc4ccccc4c3)=C2)cc1C	147 µM
O=C1CSC(c2c(F)cccc2F)N1c1ccccn1	427 µM
CCCCCCCCCC(=O)O[C@@]12[C@H](OCOC)[C@@H](C)[C@@]3(O)[C@@H](C=C(COC)C[C@]4(O)C(=O)C(C)=C[C@@H]34)[C@@H]1C2(C)C	4 µg/mL
O=S1(=O)N=C(Nc2ccccc2)C=C(Cc2ccccc2)N1	292 µM
COc1ccc(CCNc2nc(NC(=O)Nc3cccc(C)c3)nc(Oc3cc(=O)oc4ccccc34)n2)cc1OC	22.45 µg/mL

The last 4 rows once more:

smiles,value
O=C1CSC(c2c(F)cccc2F)N1c1ccccn1,427 µM
CCCCCCCCCC(=O)O[C@@]12[C@H](OCOC)[C@@H](C)[C@@]3(O)[C@@H](C=C(COC)C[C@]4(O)C(=O)C(C)=C[C@@H]34)[C@@H]1C2(C)C,4 µg/mL
O=S1(=O)N=C(Nc2ccccc2)C=C(Cc2ccccc2)N1,292 µM
COc1ccc(CCNc2nc(NC(=O)Nc3cccc(C)c3)nc(Oc3cc(=O)oc4ccccc34)n2)cc1OC,22.45 µg/mL